Human monoclonal antibodies against the spike receptor-binding domain (heavy:light variable regions). IC50 against pseudoviruses bearing the spike of naturally observed variants; lower = stronger; >10 µg/ml means not reached at the top dose. No active / inactive call. The stated detection limit is 0.0005 µg/ml; values near or below 0.001 µg/ml lie at the floor of the assay.
B1: BD55-5789 (protein)
chain 1: QLQLQESGPGLVKPSETLSLTCTVSGASMSSSSDHWGWIRQPPGKGLEWIGSTFYSGTIYYNPSLKSRVSISVDTSKNQFSLNLSSVTAADTAVYFCARTAWFGELDDYWGQGTLVTVSS
chain 2: QSVLTQPPSASGTPGQRVTIPCFGSSSNIGSNYVYWYQQLPGTAPKLLIYGNNQRPSGVPDRFSGSKSGTSASLTISGLRSEDEADYYCAAWDETLKVVFGGGTKLTVL
B2: BD55-5790 (protein)
chain 1: EVQLVESGGNLVQPGGSLRLSCAASGFTFSRYWMSWVRQAPGKGLEWVANIKQDGSETSYVDSVEGRFTISRDNAKNSLFLQMNSLRAEDTAVYYCARAPVSYDILTPEWFDAWGQGTLVTVSS
chain 2: YELTQPPSVSVSPGQTARITCSGDPLPTQWTNWYQQKPGQAPVMVIYKDRERPSGIPERFSGSTSGTTVTLIISGVQAEDEADYYCQSADSRFWVFGGGTKLTVL
B3: BD55-5806 (protein)
chain 1: QVQLVQSGAEVKKPGSSVKVSCKASGGSFGNYAITWVRQAPGQGLEWMGRIIPILERANYAQKVQGRITITADTSTSTAYMELSSLRSEDTAVYYCARDASCDFWSGYCQNDAFDIWGQGTMVAVSS
chain 2: DIQVTQSPSAMSVSVGDRVTITCRASQGVSNYLVWFQQKPGKAPKRLIYAASSLQSGVPSRFSGSGSGTEFTLTISSLQPEDFATYYCLHHSSYPWTFGQGTKVEIK
B4: BD55-5815 (protein)
chain 1: EVQLVESGGGLVQPGGSLRLSCAASGFSFSNYDMHWVRQTKAEGLEWVSAIGTSGDTYYADSVKGRFIISRENAKNSLYLQMSRLRDGDTAVYYCVRGDFDSRGFVGWFDPWGQGTLVAVSS
chain 2: DFQMTQSPSSLSASVGERVTITCRASQYISNYLNWYQQKPGKAPKLLIYAASSLQSGVPSRFSGSGSGRDFTLTISSLQPDDFATYYCQQSYATPPWTFGPGTKVDIK
B5: BD55-5831 (protein)
chain 1: QMQLVESGGGVVRPGRSLRLSCAASAFPFSTYAMHWVRQAPGKGLEWVAVISYDGSDIYYADSVKGRFTISRDNSKNTLYLQMSNLGAEDTAVYYCARAGVLRNFDWLLSSGFAYWGQGTLVTVSS
chain 2: DIQMTQSPSSLSASVGDRVTITCQASQDIRNYLNWYQQKPGKAPKLLIYDASNLEPGVPSRFSGRGSGTDFTLTISSLQPEDLATYYCQQYFNLPSFGQGTKLEIK
B6: BD55-5836 (protein)
chain 1: QVQLQESGPGVVKPSETLSLTCSVSGDSISSDSYFWAWIRQPPGKGPQWIGSIYYSGSTYYTPSLKSRVTISVDTSKSQLSLKLSSVTAADTAVYYCARLPLVLRYFDWLSWGRGTLVTVSS
chain 2: EIVLTQSPGTLSLSPGERATLSCRASQSISNSYLAWYQQKPGQAPRLLIYGASSRATGIPDRFSGSGSGTDFTLTISRLEPEDFAVYYCQQYRSSQGWTFGQGTKVEIK

Target: SARS-CoV-2 Omicron BA.1 spike pseudovirus
Assay: pseudovirus neutralization IC50; higher = weaker neutralization
Method: (§1)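 Single-round VSV luciferase pseudovirus mixed with antibody dilutions for 1 h and put on Huh-7 cells for about a day; IC50 from the dose curve.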

Binder | pseudovirus neutralization IC50 [µg/mL]
B1 | > 10
B2 | > 10
B3 | 0.333
B4 | 5.84
B5 | > 10
B6 | > 10

Target: SARS-CoV-2 Omicron BA.2 spike pseudovirus
Assay: as above
Method: as §1

Binder | pseudovirus neutralization IC50 [µg/mL]
B1 | > 10
B2 | > 10
B3 | 0.213
B4 | > 10
B5 | > 10
B6 | > 10

Target: SARS-CoV-2 Omicron BA.2.75 spike pseudovirus
Assay: as above
Method: as §1

Binder | pseudovirus neutralization IC50 [µg/mL]
B1 | > 10
B2 | > 10
B3 | 0.0018
B4 | > 10
B5 | > 10
B6 | > 10

Target: SARS-CoV-2 Omicron BA.5 spike pseudovirus
Assay: as above
Method: as §1

Binder | pseudovirus neutralization IC50 [µg/mL]
B1 | > 10
B2 | > 10
B3 | > 10
B4 | 8.12
B5 | > 10
B6 | > 10

Target: SARS-CoV-2 Omicron BQ.1.1 spike pseudovirus
Assay: as above
Method: as §1

Binder | pseudovirus neutralization IC50 [µg/mL]
B1 | > 10
B2 | > 10
B3 | > 10
B4 | > 10
B5 | > 10
B6 | > 10

Target: SARS-CoV-2 Omicron XBB spike pseudovirus
Assay: as above
Method: as §1

Binder | pseudovirus neutralization IC50 [µg/mL]
B1 | > 10
B2 | > 10
B3 | > 10
B4 | > 10
B5 | > 10
B6 | > 10

Target: SARS-CoV-2 early D614G spike pseudovirus
Assay: as above
Method: as §1

Binder | pseudovirus neutralization IC50 [µg/mL]
B1 | > 10
B2 | 2.84
B3 | 0.0017
B4 | 0.648
B5 | 0.157
B6 | 0.399

— the supplement of paper PMC9931576
